Experimental data taken from patent publication US10378034B2, “Use of a N-acetylneuraminate lyase derived from the bacterium Aliivibrio salmonicida in the production of neuraminic acid and derivatives thereof” (Universitetet i Tromsø-Norges Arktiske Universitet, priority 2014, dated 2019).

Assay: Condensation-cleavage equilibrium studies
Format: biochemical
Conditions: HEPES pH 8.0

B1: AsNAL: N-acetylneuraminate lyase isolated from the psychrophilic bacterium Aliivibrio salmonicida LFI1238, recombinantly expressed in E. coli (protein, listed as Aliivibrio salmonicida)
chain: MKKLTGLIAAPHTPFDSSSNVNFEEIDKIAKHLINDGVKGIYVCGTTGEGIHCSVEERKAIAERWVSACNHKLDIIVHTGALSIVDTLELTRHADTLDILATSAIGPCFFKPGSVSDLVEYCATIAAAAPSKGFYYYHSGMSGVNLNMEEFLIQADKRIPNLSGLKFNSGDLYEYQRCLRACDGKFDVPFGVDEFLPGALAVGAKSAVGSTYNYAAPHFNSIIEAFNKGDHDAVFNKMTNVIELIRVLVEFGGVAAGKIAMELHDINAGDPRLPLMPLSAEQKLTVVEKMRAANFLK
**Q.** For B1, which “equilibrium constant for the cleavage reaction, Kc” value (“equilibrium constant” below) (4° C.) is on record?
**A.** Its value is 0.003.

**Q.** And the “equilibrium constant” value (23° C.)?
**A.** Its value is 0.031.

**Q.** What about the “equilibrium constant” value (37° C.) of the same molecule?
**A.** Its value is 0.068.
